# Source: publication PMC3791872, “Ciprofloxacin is an inhibitor of the Mcm2-7 replicative helicase” (Bioscience Reports, 2013)
# Sequences of proteins named here, by UniProt entry; tags and fusion partners are left off. A change or cut given only in a name is not applied to a line headed by its entry.
# UniProt P03070: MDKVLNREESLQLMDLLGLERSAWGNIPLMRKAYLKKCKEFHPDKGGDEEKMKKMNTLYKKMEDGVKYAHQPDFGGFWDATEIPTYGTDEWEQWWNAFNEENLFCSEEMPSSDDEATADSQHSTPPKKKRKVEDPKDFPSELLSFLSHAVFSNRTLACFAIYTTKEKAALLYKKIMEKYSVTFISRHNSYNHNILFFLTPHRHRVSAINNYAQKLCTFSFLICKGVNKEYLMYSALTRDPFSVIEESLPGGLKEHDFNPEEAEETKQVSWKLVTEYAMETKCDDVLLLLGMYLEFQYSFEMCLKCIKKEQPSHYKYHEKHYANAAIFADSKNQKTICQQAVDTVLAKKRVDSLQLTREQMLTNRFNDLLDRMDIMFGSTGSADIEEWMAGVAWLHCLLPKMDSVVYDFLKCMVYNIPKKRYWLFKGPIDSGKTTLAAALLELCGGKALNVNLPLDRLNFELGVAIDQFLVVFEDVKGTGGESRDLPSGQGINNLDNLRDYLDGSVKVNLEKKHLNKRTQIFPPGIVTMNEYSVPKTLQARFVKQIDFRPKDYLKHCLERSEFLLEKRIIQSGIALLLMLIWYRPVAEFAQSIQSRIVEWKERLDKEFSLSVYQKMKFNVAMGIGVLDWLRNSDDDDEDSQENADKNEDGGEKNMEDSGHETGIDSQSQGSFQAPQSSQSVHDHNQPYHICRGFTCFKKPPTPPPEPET
# For at least one entry, the source does not settle the construct or the ends of the probe. At least one verdict rests on a figure or table, not on a statement of the authors.
# Molecular target: SV40 large T antigen (TAg) (SV40) (UniProt P03070)
# Test: double filter binding
# Details: no inhibitor control (1% DMSO), 150 nM hexamer, 4 nM ssDNA, 150 nM helicase hexamer, 20 min inhibitor preincubation at 37 C, label: 5'-32P, single-stranded DNA
sequence,measurement,value
TGTCTAATCCCGAAAGGCCCTGCCACTGAAATCAACACCTAAAGCATTGA [oligo 826],binding result,binds
